Test results taken from PMC12604803, “Novel ACE2 binding in bat merbecoviruses expands potential host range” (2025).

Experiments:
Assay in all cases: flow cytometry on cells
[1] = biological target: BtVs-SC2013 RBD-hFc; settings: parent: est. 100; read off a plot
[2] = biological target: HKU25 RBD-hFc; settings: parent: est. 100; read off a plot
[3] = biological target: HKU5 RBD-hFc (UniProt A3EXD0); settings: read off a plot; for percent of parent (% relative to WT): parent: est. 100; for response (% of Positive cells): parent: est. 1.0

Mink ACE2 D90N was tested, and the percent of parent (% relative to WT) [1] was 38 and the percent of parent (% relative to WT) [2] was 44.
Mink ACE2 D355A showed a percent of parent (% relative to WT) [1] of 80 and a percent of parent (% relative to WT) [2] of 130.
Work on Mink ACE2 E37A yielded a percent of parent (% relative to WT) [1] of 15 and a percent of parent (% relative to WT) [2] of 2.
Mink ACE2 E38A was tested, and the percent of parent (% relative to WT) [1] was 44 and the percent of parent (% relative to WT) [2] was 30.
Work on Mink ACE2 K353A yielded a percent of parent (% relative to WT) [1] of 7 and a percent of parent (% relative to WT) [2] of 2.
Work on Mink ACE2 R357A yielded a percent of parent (% relative to WT) [1] of 6 and a percent of parent (% relative to WT) [2] of 1.
Substance Mink ACE2 Y41A has a percent of parent (% relative to WT) [1] of 1 and a percent of parent (% relative to WT) [2] of 2.
Substance Pipistrellus abramus ACE2 DPI90-92NLT has a percent of parent (% relative to WT) [3] of 100.
Pipistrellus abramus ACE2 H34S gave a percent of parent (% relative to WT) [3] of 81.
Substance Pipistrellus abramus ACE2 K352E has a percent of parent (% relative to WT) [3] of 1.
Work on Pipistrellus abramus ACE2 N321S yielded a percent of parent (% relative to WT) [3] of 82.
Substance Pipistrellus abramus ACE2 N353D has a percent of parent (% relative to WT) [3] of 84.
Work on Pipistrellus abramus ACE2 N386K yielded a percent of parent (% relative to WT) [3] of 85.
In the case of Pipistrellus abramus ACE2 NQS386-388KQP, the percent of parent (% relative to WT) [3] was 80.
Pipistrellus abramus ACE2 P324Q was tested, and the percent of parent (% relative to WT) [3] was 29.
For Pipistrellus abramus ACE2 RDS328-330NNS, the percent of parent (% relative to WT) [3] was 1.
Pipistrellus abramus ACE2 S388P gave a percent of parent (% relative to WT) [3] of 89.
Pipistrellus abramus ACE2 V30D gave a percent of parent (% relative to WT) [3] of 88.
Pipistrellus pipistrellus ACE2 E353K showed a response (% of Positive cells) [3] of 0.8.
Substance “Pipistrellus pipistrellus ACE2 NNS329-331RDS” has a response (% of Positive cells) [3] of 0.25.
In the case of “Pipistrellus pipistrellus ACE2 NNS329-331RDS; E353K”, the response (% of Positive cells) [3] was 0.6.
Pipistrellus pipistrellus ACE2 Q325P gave a response (% of Positive cells) [3] of 0.8.
“Pipistrellus pipistrellus ACE2 Q325P; E353K” showed a response (% of Positive cells) [3] of 0.45.
“Pipistrellus pipistrellus ACE2 Q325P; NNS329-331RDS” was tested, and the response (% of Positive cells) [3] was 0.2.
“Pipistrellus pipistrellus ACE2 Q325P; NNS329-331RDS; E353K” was tested, and the response (% of Positive cells) [3] was 6.7.
